Activity calls are given as the source filed them. How the calls were made is not given here.

This experiment in a line: A Cell Based Secondary Assay To Explore Cytotoxicity of Compounds that Sensitize Mycobacterium Tuberculosis to Beta-Lactam Antibiotics. Format: functional.

Regarding `CCCCCCCCCCCCCCCC[N+](C)(C)CCN(Cc1ccc(OC)cc1)c1ncccn1` [THONZONIUM BROMIDE], the CC50 (as a rule, the concentration that lowers cell viability or growth by half) is active: 10.6 µM.

These data come from ChEMBL document CHEMBL1201862, “PubChem BioAssay data set” (2004).
